Anti-infective test results gathered from many reports (values: NIAID ChemDB through PubChem).

All rows: growth or infection tests; agent: HIV-1

Rows are shuffled and stem from different studies. ECn is the concentration giving n% inhibition of infection, replication or growth. An empty or dashed field is not shown.

| structure | read-out | mutations | strain | cells | read by | result |
|---|---|---|---|---|---|---|
| CCc1cc(NCc2nc3ccccc3o2)c(=O)[nH]c1C | EC50 |  | rHXB2 | MT-4 | p24 | <0.2 µM |
| Cc1occc1C(=S)Nc1ccc(Cl)c(/C=N/OC(C)(C)C)c1 | EC50 | RT-L100I | Oxathiin carboxanilide-resistant RT L100I | CEM + CEM-SS | cytopathic effect / XTT | 2 µM |
| COc1ccccc1NC(=O)CSc1nnnn1-c1cccc2ccccc12 | EC50 |  |  | MT-4 | p24 | <10 µM |
| CC(C)=CCN1Cc2cc(Cl)cc3[nH]c(=S)n(c23)C[C@@H]1C | EC50 | RT-D138K | IIIB | CEM | cytopathic effect / XTT | 0.16 µM |
| C1CNCCNCCCN[C@H]([C@@H]2CNCCCNCCNCCCN2)CNC1 | EC90 |  | HE | MT-4 | cytopathic effect / MTT | 0.87 µM |
| Nc1ncnc2c1ncn2CCOCP(=O)(O)O | EC50 |  | HXB2D | CBMC | p24 | 0.22 ± 0.03 µM |
| CC(C)CN(C[C@@H](O)[C@H](Cc1ccccc1)NC(=O)O[C@H]1CCOC1)S(=O)(=O)c1ccc(N)cc1 | EC50 |  | ERS104pre | PBL | p24 | 0.028 µM |
| O=c1[nH]cnc2c1ncn2[C@H]1CC[C@@H](CO)O1 | EC50 | RT-K65R L74V M184V Y115F | XM-ABC-resistant | MT-4 | p24 | <52 µM |
| O=C(CSc1nnnn1-c1ccc2c(c1)OCO2)Nc1ccccc1Cl | EC50 |  |  | MT-4 | p24 | <10 µM |
| CC(=O)c1ccc(C)cc1NC(C(N)=O)c1c(Cl)cccc1Cl | EC50 |  | IIIB | CEM + CEM-SS | XTT | 0.03 µM |
| N#CC[C@H](C1CCCC1)n1cc(-c2ncnc3[nH]ccc23)cn1 | EC50 | A62V V75I F77L F116Y Q151M |  | Primary T lymphocytes | p24 / ELISA | 0.03 µM |
| CC(=O)O[C@@]12C[C@@H](C)[C@@]3(O)[C@@H](C=C(CO)C[C@]4(O)C(=O)C(C)=C[C@@H]34)[C@@H]1C2(C)C | EC50 | PI-resistant (V82F I84V) | RF | C8166 | p24 / ELISA | 4.069 µM |
| O=C1O[C@H]2[C@@H]3OC(=O)c4cc(O)c(O)c(O)c4-c4c(cc(O)c(O)c4O)C(=O)OC[C@H]2O[C@@H](OC(=O)c2cc(O)c(O)c(O)c2)[C@@H]3OC(=O)c2cc(O)c(O)c3c2[C@@H]2C1=CC(=O)[C@](O)(O3)C2(O)O | EC50 | RT-D67N K70R T215F K219Q | NRTI resistant (RT D67N K70R T215F K219Q) ARP141 | MAGI |  | 0.83 µg/mL |
| Nc1nc(NC2CC2)c2ncn([C@H]3C=C[C@@H](CO)O3)c2n1 | EC50 |  | LAI | PBMC | cytopathic effect / MTT | 1.1 µM |
| Cc1csc(NC(=S)NCCc2ccccc2)n1 | EC50 |  | IIIB | MT-4 | cytopathic effect | 0.5 µM |
| Cc1cn([C@H]2C=C[C@@H](CO)O2)c(=O)[nH]c1=O | EC90 |  | LAI | Primary T lymphocytes | p24 / ELISA | 6.4 µM |
| CCN(c1ncccc1NC(C)(C)C)C1CCN(C(=O)c2cc3cc(NS(C)(=O)=O)ccc3[nH]2)CC1 | EC90 |  | Isolate 472 | PBMC | p24 | 0.18 µM |
| O=c1[nH]cnc2c1ncn2C1CC[C@@H](CO)O1 | EC50 | A62V V75I F77L F116Y Q151M |  | Primary T lymphocytes | p24 / ELISA | 40.5 µM |
| Cc1c(O)cccc1C(=O)N[C@@H](CSc1ccccc1)[C@H](O)CN1C[C@H]2CCCC[C@H]2C[C@H]1C(=O)NC(C)(C)C | EC50 | PR-L10R M46I L63P V82T I84V | HXB2 | PBMC | p24 | <0.25 µM |
| Fc1cccc(F)c1C1SCc2nc3ccccc3n21 | EC50 |  | RF | MT-4 | cytopathic effect | 0.55 µM |
| Nc1ncnc2c1ncn2CCOCP(=O)(O)O | EC50 | RT-L100I Y188H | IIIB TIBO R82913 STR-B22 (RT L100I Y188H) | CEM | syncytia | 10 µM |
| CC(=O)N1CCC(C(=O)N(CCCN2CCC(Cc3ccc(C(N)=O)cc3)CC2)c2ccc(C)c(Cl)c2)CC1 | EC50 |  | R5 subtype F_3 recombinant | U87 (CD4+ CCR5+) + U87 | luciferase | 0.006 µM |
| Nc1nc(N)c2ncn([C@H]3CO[C@@H](CO)O3)c2n1 | EC50 |  | IIIB | MT-2 | cytopathic effect / MTT | 9.7 µM |
| Cc1cn([C@H]2C[C@H](N=[N+]=[N-])[C@@H](CO)O2)c(=O)[nH]c1=O | EC50 | RT-T139I | NL4-3 | CEM + CEM-SS | XTT | 0.003 µM |
| Fc1cccc(F)c1C1SCc2nc3ccccc3n21 | EC50 |  | RF | U-937 | RT activity | 0.52 µM |
| CCOCn1c(Cc2cc(C)cc(C)c2)c(CC)c(=O)[nH]c1=O | EC50 | RT-Y181C | IIIB nevirapine-resistant (RT Y181C) | CEM | syncytia | 0.2 µM |
| Cc1cc(C)c(-n2nnnc2SCC(=O)Nc2sccc2C#N)c(C)c1 | EC50 |  |  | MT-4 | p24 | <10 µM |
| Nc1nc2c(ncn2[C@H]2CC[C@@H](CO)O2)c(=O)[nH]1 | EC50 | RT-Y181C | IIIB nevirapine-resistant (RT Y181C) | CEM | syncytia | 3 µM |
| Cc1cn([C@H]2C[C@H](N=[N+]=[N-])[C@@H](CO)O2)c(=O)[nH]c1=O | EC50 | RT-T69SSS L210W T215Y | XM-T69SSS | MT-4 | p24 | <77 µM |
| Cc1cn([C@H]2C[C@H](N=[N+]=[N-])[C@@H](CO)O2)c(=O)[nH]c1=O | EC50 | RT-L100I Y188H | 22(RT-L100I Y188H) | MT-4 | cytopathic effect / XTT | 0.004 µM |
| CC(C)Nc1cccnc1N1CCN(C(=O)c2cc3cc(NS(C)(=O)=O)ccc3[nH]2)CC1 | EC90 |  | Isolate 461 | PBMC | p24 | 10 µM |
| Cc1cc(=O)c2ccc(N=C=S)cc2o1 | EC50 |  | NL4-3 | PBMC | p24 / ELISA | 0.1925 µM |
| c1ccc(CSc2nnnn2-c2cccc3ccccc23)nc1 | EC50 |  |  | MT-4 | p24 | <10 µM |
| S=C(NCCc1ccccn1)Nc1ccc(Br)cn1 | EC90 |  | IIIB | MT-4 | cytopathic effect / XTT | 0.13 µM |
| Cc1c(C#N)cc(C(F)F)cc1Oc1c(C(F)(F)C(F)F)ncn(Cc2cc(F)c[nH]c2=O)c1=O | EC50 | Y181C |  |  | RT activity / fluorescence | 0.0158 µM |
| Fc1cccc(F)c1[C@H]1SCc2nc3ccccc3n21 | EC50 |  | IIIB | CEM | cytopathic effect / XTT | 0.62 µM |
| CC(C)CN(C[C@@H](O)[C@H](Cc1ccccc1)NC(=O)O[C@H]1CCOC1)S(=O)(=O)c1ccc(N)cc1 | EC50 | PR-L10R M46I L63P V82T I84V | HXB2 | PBMC | p24 | <0.55 µM |
| O=c1[nH]cnc2c1ncn2[C@H]1CC[C@@H](CO)O1 | EC50 | RT-V75I | Recombinant | PBMC | p24 | 0.4 µM |
| C/C=C/CSc1cc(NC(=S)c2ccsc2C)ccc1Cl | EC50 | RT-K103N Y181C | Pyridinone-resistant (RT Y181C K103N) | CEM + CEM-SS | cytopathic effect / XTT | >2 µM |
| Cc1ccc(S(=O)(=O)N(CC(C)C)C[C@@H](O)[C@H](Cc2ccccc2)NC(=O)O[C@H]2CO[C@H]3OCC[C@H]32)cc1 | EC50 | ATV-P36 darunavir-resistant mutant | IIIB | MT-2 | ATP | 0.0019 µM |
| CCc1c(C(=O)c2cc(C)cc(C)c2)n(CC2CC=CC2)c(=O)[nH]c1=O | EC50 | RT-V106I | NL4-3 | CEM + CEM-SS | cytopathic effect / XTT | 0.0006 µM |
| COC(=O)N[C@H](C(=O)N[C@@H](Cc1ccccc1)[C@@H](O)CN(Cc1ccc(-c2ccccn2)cc1)NC(=O)[C@@H](NC(=O)OC)C(C)(C)C)C(C)(C)C | EC50 |  | NL4-3 | MT-4 | p24 | 0.0036 µM |
| CCc1cc(NCc2nc3c(Cl)ccc(Cl)c3o2)c(=O)[nH]c1C | EC50 | RT-Y181C | T3-16(RT-Y181C) | MT-4 | cytopathic effect / XTT | >10 µM |
| Cc1ccc(-n2nnnc2SCC(=O)Nc2ccc(C)c([N+](=O)[O-])c2)cc1 | EC50 |  |  | MT-4 | p24 | <10 µM |
| Nc1ccn([C@@H]2CS[C@H](CO)O2)c(=O)n1 | EC50 | RT-V75I F77L F116Y Q151M | Recombinant | PBMC | p24 | 0.1 µM |
| C1CNCCNCCCN(CCCN2CCCNCCNCCCNCC2)CCNC1 | EC50 |  | RF | MT-4 | cytopathic effect / MTT | 0.37 µM |
| C#C[C@]1(CO)O[C@@H](n2cnc3c(N)nc(F)nc32)C[C@@H]1O | EC50 | L74I/M184I | Clinical isolate | MT4-GFP | fluorescence | 0.00444 µM |
| C[C@H](Cn1cnc2c(N)ncnc21)OCP(=O)(O)O | EC50 | RT-P119S V179D L214F | P18 FDDA-resistant RT P119S V179D L214F | MT-2 | p24 | 1.2 µM |
| Cc1ccnc2c1NC(=O)c1cccnc1N2C1CC1 | EC50 | RT-Y181C | NL4-3 (RT Y181C) | CEM + CEM-SS | cytopathic effect / XTT | 1.3 µM |
| O=C(CSc1nnnn1-c1cccc(Cl)c1Cl)Nc1ccccc1[N+](=O)[O-] | EC50 |  |  | MT-4 | p24 | <10 µM |
| Cc1cc(S(N)(=O)=O)ccc1NC(=O)COc1ccc(Cl)cc1C(=O)c1cc(Cl)cc(C#N)c1 | EC50 | RT-V106I Y181C | NNRTI-resistant (RT V106I Y181C) | MAGI | β-galactosidase | 0.0049 µM |
| Cc1ccnc2c1NC(=O)c1cccnc1N2C1CC1 | EC50 | K103N + Y181C | A17 | C8166 | antigen | 203.4 µM |
| Cc1cn([C@H]2C[C@H](N=[N+]=[N-])[C@@H](CO)O2)c(=O)[nH]c1=O | EC50 |  | A17 | MT-4 | p24 | <0.025 µM |
| Cc1cn([C@H]2C[C@H](N=[N+]=[N-])[C@@H](CO)O2)c(=O)[nH]c1=O | EC50 | K112M K113E V128I M200I H219P I401T R409K D437N L441P R41K | IIIB | MT-2 | p24 / ELISA | 0.008 µM |
| O=c1[nH]cnc2c1ncn2[C@H]1CC[C@@H](CO)O1 | EC50 |  | rHXB2 | MT-4 | p24 | <25 µM |
| Cc1cn([C@H]2C[C@H](N=[N+]=[N-])[C@@H](CO)O2)c(=O)[nH]c1=O | EC50 |  | 410 clinical isolates AZT-resistant | PBMC | p24 | <6.6 µM |
| O=C(CSc1nnnn1-c1cccc(Cl)c1)Nc1ccccc1Cl | EC50 |  |  | MT-4 | p24 | <10 µM |
| O=c1[nH]cnc2c1ncn2[C@H]1CC[C@@H](CO)O1 | EC50 | RT-M184V | HXB2D (RT-M184V) | MT-4 | p24 | 37.6 µM |
| CCn1c(=O)c(C)cn([C@@H]2O[C@H](CO[Si](C)(C)C(C)(C)C)C3(OS(=O)(=O)C=C3N)[C@H]2O[Si](C)(C)C(C)(C)C)c1=O | EC50 | RT-Y181C | IIIB nevirapine-resistant (RT Y181C) | CEM | syncytia | >50 µM |
| CCC[C@@]1(CCc2ccccc2)CC(O)=C([C@H](CC)c2cccc(NS(=O)(=O)c3ccc(C(F)(F)F)cn3)c2)C(=O)O1 | EC90 |  | 477 clinical isolates delavirdine-resistant | PBMC | p24 | 0.04 µM |
| Cc1ccnc2c1NC(=O)c1cccnc1N2C1CC1 | EC50 | RT-Y181C L103N | Pyridinone-resistant (RT K103N Y181C) | CEM + CEM-SS | XTT | >38 µM |
| CC(C)=CCN1Cc2cccc3[nH]c(=S)n(c23)C[C@@H]1C | EC50 | RT-E138K | IIIB TSAO-T(RT-E138K) | CEM | syncytia | 0.09 µM |
| CCCc1cc(=O)oc2c3c(c4c(c12)OC(C)(C)C=C4)O[C@H](C)[C@@H](C)[C@@H]3O | EC50 |  | CLADE A | PBMC | RT activity | 0.07 µM |
| CCOP(=O)(COc1ccc(C[C@H](NC(=O)O[C@H]2CO[C@H]3OCC[C@H]32)[C@H](O)CN(CC(C)C)S(=O)(=O)c2ccc(OC)cc2)cc1)OCC | EC50 | D437N | IIIB | MT-2 | p24 / ELISA | 0.008 µM |
| CCCc1cc(=O)oc2c3c(c4c(c12)OC(C)(C)C=C4)O[C@@H](C)[C@H](C)[C@@H]3O | EC50 | RT-P236L | HEPT-resistant (RT P236L) | CEM + CEM-SS | cytopathic effect / XTT | 1.1 µM |
| COc1ccc(NC(=O)CSc2nnnn2-c2c(C)cc(C)cc2C)c([N+](=O)[O-])c1 | EC95 |  |  | MT-4 | p24 | <10 µM |

Repeating the first 9 entries:

| structure | read-out | mutations | strain | cells | read by | result |
|---|---|---|---|---|---|---|
| CCc1cc(NCc2nc3ccccc3o2)c(=O)[nH]c1C | EC50 |  | rHXB2 | MT-4 | p24 | <0.2 µM |
| Cc1occc1C(=S)Nc1ccc(Cl)c(/C=N/OC(C)(C)C)c1 | EC50 | RT-L100I | Oxathiin carboxanilide-resistant RT L100I | CEM + CEM-SS | cytopathic effect / XTT | 2 µM |
| COc1ccccc1NC(=O)CSc1nnnn1-c1cccc2ccccc12 | EC50 |  |  | MT-4 | p24 | <10 µM |
| CC(C)=CCN1Cc2cc(Cl)cc3[nH]c(=S)n(c23)C[C@@H]1C | EC50 | RT-D138K | IIIB | CEM | cytopathic effect / XTT | 0.16 µM |
| C1CNCCNCCCN[C@H]([C@@H]2CNCCCNCCNCCCN2)CNC1 | EC90 |  | HE | MT-4 | cytopathic effect / MTT | 0.87 µM |
| Nc1ncnc2c1ncn2CCOCP(=O)(O)O | EC50 |  | HXB2D | CBMC | p24 | 0.22 ± 0.03 µM |
| CC(C)CN(C[C@@H](O)[C@H](Cc1ccccc1)NC(=O)O[C@H]1CCOC1)S(=O)(=O)c1ccc(N)cc1 | EC50 |  | ERS104pre | PBL | p24 | 0.028 µM |
| O=c1[nH]cnc2c1ncn2[C@H]1CC[C@@H](CO)O1 | EC50 | RT-K65R L74V M184V Y115F | XM-ABC-resistant | MT-4 | p24 | <52 µM |
| O=C(CSc1nnnn1-c1ccc2c(c1)OCO2)Nc1ccccc1Cl | EC50 |  |  | MT-4 | p24 | <10 µM |